# Human monoclonal antibodies against the spike receptor-binding domain (heavy:light variable regions). IC50 against pseudoviruses bearing the spike of naturally observed variants; lower = stronger; >10 µg/ml means not reached at the top dose. No active / inactive call. The stated detection limit is 0.0005 µg/ml; values near or below 0.001 µg/ml lie at the floor of the assay.
# B1: BD56-1855 (protein)
# chain 1: QLQLQESGPGLVKPSETLSLTCTVSGGSIRSSSYYWGWIRQPPGKGLEWIGSMYYGGSTHYKPSLKSRVTISVDTSKNQFSLKVTSVTAADTAVYYCATQGWLRGAFDYWGQGTRVTVSS
# chain 2: NFMLTQPHSVSESPEKTVTISCTGSGGNIASNYVQWYQQRPGSAPTTVIYEDTQRPSGVPDRFSGSIDSSSNSASLSISGLKTEDEADYYCQSYDVNNHVLFGGGTKLTVL
# B2: BD56-1828 (protein)
# chain 1: EVQLVESGGGLVQPGRSLRLSCAGYRFNSENYAMHWVRQAPGKGLEWVSGISWNSGTIGYADSVKGRFIISRDNAKNSLYLHMSSLRVEDTALYYCVKDISMGEGYNFAFDIWGQGTMVTVSS
# chain 2: QSVLTQPPSISGAPGRRVTISCTGSSSNIGAGYDVHWYQHLPGTVPRLLIYGNNNRPSGVPDRFSGSRSGTSASLAITGLQAEDEADYYCQSYDSSLGGFVVFGGGTKLTVL
# B3: BD56-1851 (protein)
# chain 1: QVQLVESGGGVVQPGRSLRLSCAASGFTLSSFAITWVRQAPGKGLEWVAVISYDGTNKYYADSVKDRFTVSRDNSKNTLHLQMNSLRAEDTAVYYCARDMYPLNAYYYGMDVWGQGTTVTVSS
# chain 2: DIQLTQSPSSLSASVGDRVTITCRASQGISTYLAWYQQKPGKAPKLLIYSASTLQSGVPSRFSGSGSGTDFTLTISSLQPEDFASYYCQQLNSDPRTFGQGTKLEIK
# B4: BD56-1864 (protein)
# chain 1: EVQLVESGGGSVQPGGSLTLSCAASGFTFRHYDMHWVRQRPGKGLEWVSTIGTAGDTYYPDSVKGRFTISRENAKNSLYLQMNSLRDGDTAVYYCARAQYSSNLYPRLDAWGQGTLVTVSS
# chain 2: DIQMTQSPSSLSASVGDRVTITCRASQKISNFLNWYQQKPGKAPKLLIYTASTLQSGVPSRFSGSGSGTDFTLTISSLQPEDFATYSCQQTYSSEWTFGQGTKVEIK
# B5: BD56-1850 (protein)
# chain 1: QVQLVQSGSEVKKPGSSVKVSCKASGDTFSKYAITWVRQAPGQGLEWMGRIIPMFAMANYAQKFQGRVTIIADKSTSTAYMELSSLRSEDTAMYFCATSAYQYGGGGHYLDFWGQGTLVTVSS
# chain 2: EIVLTQSPGTLSLSPGERATLSCRASQSISGTYLHWYQQKPGQAPRLLIYGATSRATGIPDRFSGSGSGTDFTLTISRLEPEDFAVYYCQQCHSSPRTFGQGTKVEIK
# B6: BD56-1852 (protein)
# chain 1: QVQLVQSGAEVKKPGSSVKVSCKTSGDTFSRFAITWVRQAPGQGLEWMGRIIPMFGMANYAQKFQGRVTFTAETSTNTAYLELSSLRSEDTAIYYCATSAYYYESSGYYIDKWGQGTLVTVSS
# chain 2: EIVLTQSPGTLSLSPGERATLSCRASQTVDNNYLAWYQQKPGQAPRLLIYGASSRATGIPDRFSGSGSGTDFTLTISRLEPEDFAVYYCHQYHNSPRTFGQGTKVEIK
# B7: BD56-1835 (protein)
# chain 1: EVQLVESGGGLVQPGGSLRLSCAASGFTFSRYYMNWVRQAPGKGLEWVANIKEDGSEKYYVDSVKGRFTISRDNAKNSLFLQMNSLRGEDTAVYYCAGQFWLRGRFDPWGQGTLVTVSS
# chain 2: NFMLTQPHSVSGSPGKTVTISCTGSSGSIASNYVQWYQQRPGSAPTTVIFEDNQRPSGVPDRFSGSIDSSSNSASLTISGLKTEDEADYYCQSYDSTNQVFGGGTKLTVL
# B8: BD56-1827 (protein)
# chain 1: QVQLVESGGGVVQPGRSLRLSCAVSGFTFSNYGMHWVRQAPGKGLEWVAVTWYEGNKNYYVDSVKGRFTISRDTSKNTLLLQMNSLRVEDTAVYYCARDRLEFWYGDYSYGMDVWGQGTTVTVSS
# chain 2: QSVLTQPASVSAAPGQKVTISCSGSSSNVGSNYVSWYQHLPGTAPNLLIYDNNQRPSGIPDRFSGSKSGTSAILGITGLQTGDEADYYCGTWDSSLSSVVFGGGTKLTVL
# B9: BD56-1863 (protein)
# chain 1: EVQLVESGGGLVHPGGSLRLSCAASGLIVSSNYMTWVRQAPGKGLEWVSLLYAGGSTFYADSVKGRFTISRDNSKNTLFLQMNSLRVEDTAVYYCARGPYPKFDPWGQGTLVTVSS
# chain 2: DIQMTQSPSSLSASVGDRVTITCQASQDIRNYINWYQQKPGKAPKLLIYDASNLETGVPSRFSGRGSGTDFTFTISGLQPEDVATYYCQQYDNLPITFGQGTRLEIK
# B10: BD56-1837 (protein)
# chain 1: EVQLVESGGGLVQPGRSLRLSCAASGFTFDDYAVHWVRQAPGKGLEWVSGISWNGGIIGYADSVQGRFTISRDNAKKSLYLQMNSLRAEDTALYYCAKAHDYGDYGSEGGFDYWGQGTLVTVSS
# chain 2: QSALTQPASVSGSPRQSITISCTGTSSDVGGYNYVSWYQHHPGKAPKLVIYDVNKRPSGISNRFSGSKSGNTASLAISGLQAEDEADYYCSSYTSSSTLVFGGGTKLTVL
# B11: BD56-1833 (protein)
# chain 1: QVQLVQSGAEVKKPGSSVKVSCKASGGTFSSYAVSWVRQAPGQGLEWMAGIIPVFGTTYNARKFQGRVTLNADESTSTVYMDLSYLRSDDTAVYYCATHSSGPAASYSYNYYMDVWGKGTTVTVSS
# chain 2: QSALTQPASVSGSPGQSITISCTGTSSDVGSYNLVSWYQQHPGKAPKLLIYDVNERPSGVSNRFSGSKSGNTASLTISGLRTEDEAYYYCCSSAGTSTWVFGGGSKLTVL
# B12: BD56-1848 (protein)
# chain 1: QVQVVESGGGVVQPGRSLRLSCAASGFTFSSYALHWVRQAPGKGLEWVAFISFNGRNKYYADSVQGRFTISRDNSRTTLYLQMNSLRAEDTAVYYCARPPWGVDSGSYSEAEMYFDSWGQGTLVTVSS
# chain 2: QSVLTQPPSVSGAPGQRVTISCTGSSSNIGAGYDVHWYQQLPGTAPKLLIYGNTNRPSGVPDRFSGSKSGTSASLAITGLLAEDEADYYCQSYDSSLSGPNWVFGGGTKLTVL
# Target: SARS-CoV-2 Omicron BA.1 spike pseudovirus
# Assay: pseudovirus neutralization IC50; higher = weaker neutralization
# Description: (§1)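 Single-round VSV luciferase pseudovirus mixed with antibody dilutions for 1 h and put on Huh-7 cells for about a day; IC50 from the dose curve.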
row,Binder,pseudovirus neutralization IC50 [µg/mL]
1,B1,1.19
2,B2,0.0459
3,B3,0.00119
4,B4,> 10
5,B5,0.019
6,B6,0.00524
7,B7,0.0993
8,B8,0.218
9,B9,0.00495
10,B10,0.0451
11,B11,0.00466
12,B12,0.231

# Target: SARS-CoV-2 Omicron BA.2 spike pseudovirus
# Assay: as above
# Description: as §1
row,Binder,pseudovirus neutralization IC50 [µg/mL]
1,B1,> 10
2,B2,0.0842
3,B3,0.0017
4,B4,> 10
5,B5,0.0214
6,B6,0.00988
7,B7,> 10
8,B8,0.0332
9,B9,0.008
10,B10,0.0617
11,B11,0.0062
12,B12,5.31

# Target: SARS-CoV-2 Omicron BA.2.75 spike pseudovirus
# Assay: as above
# Description: as §1
row,Binder,pseudovirus neutralization IC50 [µg/mL]
1,B1,> 10
2,B2,0.0699
3,B3,0.00266
4,B4,> 10
5,B5,0.00846
6,B6,0.00748
7,B7,> 10
8,B8,0.0536
9,B9,> 10
10,B10,0.0705
11,B11,0.00176
12,B12,> 10

# Target: SARS-CoV-2 Omicron BA.5 spike pseudovirus
# Assay: as above
# Description: as §1
row,Binder,pseudovirus neutralization IC50 [µg/mL]
1,B1,> 10
2,B2,1.85
3,B3,0.00178
4,B4,> 10
5,B5,> 10
6,B6,> 10
7,B7,> 10
8,B8,> 10
9,B9,0.0189
10,B10,> 10
11,B11,> 10
12,B12,3.91

# Target: SARS-CoV-2 Omicron BQ.1.1 spike pseudovirus
# Assay: as above
# Description: as §1
row,Binder,pseudovirus neutralization IC50 [µg/mL]
1,B1,> 10
2,B2,> 10
3,B3,0.0197
4,B4,> 10
5,B5,> 10
6,B6,> 10
7,B7,> 10
8,B8,> 10
9,B9,> 10
10,B10,> 10
11,B11,> 10
12,B12,> 10

# Target: SARS-CoV-2 Omicron XBB spike pseudovirus
# Assay: as above
# Description: as §1
row,Binder,pseudovirus neutralization IC50 [µg/mL]
1,B1,> 10
2,B2,> 10
3,B3,0.0194
4,B4,> 10
5,B5,> 10
6,B6,> 10
7,B7,> 10
8,B8,> 10
9,B9,> 10
10,B10,> 10
11,B11,> 10
12,B12,> 10

# Target: SARS-CoV-2 early D614G spike pseudovirus
# Assay: as above
# Description: as §1
row,Binder,pseudovirus neutralization IC50 [µg/mL]
1,B1,0.699
2,B2,0.502
3,B3,0.00813
4,B4,0.0278
5,B5,0.00241
6,B6,0.00221
7,B7,0.0462
8,B8,0.0361
9,B9,0.0228
10,B10,> 10
11,B11,0.0513
12,B12,0.163

# Reference: the supplement of paper PMC9931576
